Pooled drug test results. Numbers come from NIAID ChemDB, via PubChem.

Common to all: whole-cell or culture tests; species: HIV-1; read-out: inhibition

Neighbouring rows are from separate reports.

compound | dose | setting | mutations | method | cell line | strain | value
NS(=O)(=O)c1cc(C(=O)O)c(NCc2ccco2)cc1Cl | 100 µg/mL |  |  |  | MT-4 | LAV | 0%
Nc1nc(N)c2ncn([C@H]3CC[C@@H](CO)O3)c2n1 | 20 µM |  |  | cytopathic effect / trypan blue | MT-2 | IIIB | 3%
Cc1cn([C@H]2C[C@H](N=[N+]=[N-])[C@@H](CO)O2)c(=O)[nH]c1=O | 0.0316 µM |  |  | syncytia | HT4 + HT4-6C | LAV-1 | 72%
COc1cc(O)c2c(c1)C(=O)c1c(cc3c(c1O)-c1c(cc(C)c(C(=O)N[C@H](C)C(=O)O)c1O)[C@H](O[C@@H]1O[C@H](C)[C@H](N)[C@H](O[C@@H]4OC[C@@H](O)[C@H](O)[C@@H]4O)[C@H]1O)[C@H]3O)C2=O | 3 µg/mL |  |  | antigen | MT-4 | IIIB | 17%
O=c1[nH]cnc2c1ncn2[C@H]1CC[C@@H](CO)O1 | 10 µM |  |  | cytopathic effect / trypan blue | ATH8 | IIIB | 97%
O=c1[nH]cnc2c1ncn2[C@H]1CC[C@@H](CO)O1 | 10 µM |  | RT-A62V V75I F77L Q151M | p24 | PBMC | ddI-resistant (RT K65R/L74V/M184V) | 0%
CCCCCCCCCCOCCC(=O)O | 20 µM |  |  | cytopathic effect / XTT | CEM + CEM-SS | IIIB | 4.8%
C[C@H](CC(=O)C[C@@H](C)[C@H]1C[C@H](O)[C@@]2(C)C3=C(C(=O)C[C@]12C)[C@@]1(C)CCC(=O)C(C)(C)[C@@H]1C[C@@H]3O)C(=O)O | 1000 µM |  |  | cytopathic effect / microscopy | MT-4 |  | 0%
CC(C)(CO)[C@@H](O)C(=O)NCCCC(=O)O | 100 µg/mL |  |  |  | MT-4 | LAV | 87%
Nc1nc(NC2CC2)c2ncn([C@H]3C=C[C@@H](CO)C3)c2n1 | 4 µM |  |  | RT activity | PBL (resting) + PBL | BZ X4 | 99%
O=c1ccc2cc3ccoc3cc2o1 | 50 µM |  |  | luciferase | MT-2 | NL4-3 Recombinant VSV-pseudotyped | 16%
Cc1cn([C@H]2C[C@H](N=[N+]=[N-])[C@@H](CO)O2)c(=O)[nH]c1=O | 0.1 µM |  |  | virus yield | CEM | LAV-1 | 90%
O=C(O)/C=C/c1ccc[c]([Sb](=[O])([OH])[OH])c1 | 10 µM |  |  | β-galactosidase | MAGI | 93IN101 R5 clinical isolate | 88%
CC(C)[C@@H](C)/C=C/[C@@H](C)[C@H]1CCC2[C@@]34C=C[C@]5(C[C@@H](O)CC[C@]5(C)C3CC[C@@]21C)OO4 | 15.6 µM |  |  | cytopathic effect / microscopy | MT-4 |  | 0%
COc1cc(O)c2c(c1)C(=O)c1c(cc3c(c1O)-c1c(cc(C)c(C(=O)N[C@H](C)C(=O)O)c1O)[C@H](O[C@@H]1O[C@H](C)[C@H](NC(C)=O)[C@H](O[C@@H]4OC[C@@H](O)[C@H](O)[C@H]4O)[C@H]1O)[C@H]3O)C2=O | 30 µg/mL |  |  | antigen | MT-4 | IIIB | <10%
O=S(=O)(O)c1cc(N=C=S)ccc1CCc1ccc(N=C=S)cc1S(=O)(=O)O | 25 µg/mL |  |  | syncytia | JM | GB8 | 93%
NC12CC3CC(CC(C3)C1)C2 | 10 µg/mL |  |  |  | MT-4 | LAV | 50%
C[C@H](CC[C@H](O)C(C)(O)CO)[C@H]1CC[C@@]2(C)C3=CCC4C(C)(C)[C@@H](O)CC[C@]4(C)C3=CC[C@]12C | 1000 µM |  |  | cytopathic effect / microscopy | MT-4 |  | 0%
O=C(O)CCCCCCCCCCCc1ccccc1 | 20 µM |  |  | cytopathic effect / XTT | CEM + CEM-SS | IIIB | 15.3%
c1cc(CN2CCCNCCNCCCNCC2)ccc1CN1CCCNCCNCCCNCC1 | 0.1 µM |  |  | p24 | PBMC | CM235 CLADE E R5 | 2%
COc1cc(O)c2c(=O)oc3cc(O)cc(C)c3c2c1 | 180 µM | 5 d |  | p24 / ELISA | PBMC | NL4-3 | 100%
Nc1ncnc2c1ncn2[C@H]1CC[C@@H](CO)O1 | 10 µM |  |  | ELISA | MT-4 | IIIB | 50%
O=C(O)P(=O)(O)O | 30 µM | 6 d |  | p24 / antigen | H9 | IIIB | 12%
COC(=O)C(O)[C@H]1[C@]2(C)C[C@]3(O)[C@@](O)(C(=O)C4=C(CC[C@]5(C)C4=CC(=O)O[C@H]5c4ccoc4)[C@]13C)[C@H]2OC(=O)C(C)C | 100 µM | pseudotyped |  | luciferase / luminescence | SupT1 | NL4-3 | 99.44%
Nc1ccn([C@@H]2C=C[C@@H](CO)[C@H](CO)S2)c(=O)n1 | 0.01 µM |  |  | p24 / antigen | PBMC |  | 35%
Nc1ccn([C@@H]2O[C@H](CO)C[C@@H]2F)c(=O)n1 | 10 µM |  |  | antigen | H9 | IIIB | 89%
O=C1N(Cc2ccc(CO)cc2)[C@H](Cc2ccccc2)[C@H](O)[C@@H](O)[C@@H](Cc2ccccc2)N1Cc1ccc(CO)cc1 | 0.09 µM |  |  | p24 | PBMC | R clinical isolate | 90%
OC[C@H]1O[C@@H](n2cnc3cc(Cl)c(Cl)cc32)[C@H](O)[C@@H]1O | 50 µM |  |  | luciferase | HeLa | NL4-3 Recombinant VSV-pseudotyped | 65%
Cc1ccnc2c1NC(=O)c1cccnc1N2C1CC1 | 1 µM |  |  | syncytia | HT4 + HT4-6C | LAV-1 | 96%
CC(C)Nc1cccnc1N1CCN(C(=O)c2cc3cc(N=CN(C)C)ccc3[nH]2)CC1 | 1 µM |  |  | MTT | PBMC | Seropositive clinical isolate D | 99%
COc1ccc(CN[C@@H](C(=O)N[C@H]2c3ccccc3C[C@H]2O)[C@H](O)[C@H](Cc2ccccc2)NC(=O)[C@@H](NC(=O)OCc2ccccc2)C(C)(C)C)cc1 | 0.087 µM |  |  | p24 | Primary monocytes + Monocyte | BaL | 90%
COC(=O)[C@@H](C)NC(=O)c1c(C)cc2c(c1O)-c1c(cc3c(c1O)C(=O)c1cc(OC)cc(O)c1C3=O)[C@H](O)[C@H]2O[C@@H]1O[C@H](C)[C@H](N)[C@H](O[C@@H]2OC[C@@H](O)[C@H](O)[C@H]2O)[C@H]1O | 30 µg/mL |  |  | antigen | MT-4 | IIIB | 15%
O=C(O)P(=O)(O)O | 128 µM | 14 d |  | RT activity | PBL | IIIB | 91%
O=C(O)CCCCCCCCCCCF | 63.2 µM |  |  | cytopathic effect / XTT | CEM + CEM-SS | IIIB | 48.6%
COC(=O)C(OC(C)=O)[C@H]1C(C)(C)[C@H](OC(C)=O)[C@]2(O)CC3=C(CC[C@]4(C)C3=CC(=O)O[C@H]4c3ccoc3)[C@@]1(C)C2=O | 100 µM | pseudotyped |  | luciferase / luminescence | SupT1 | NL4-3 | 0%
CCC[C@@]1(CCc2ccccc2)CC(O)=C([C@H](CC)c2cccc(NS(=O)(=O)c3ccc(C(F)(F)F)cn3)c2)C(=O)O1 | 0.12 µM |  |  | p24 | PBMC | Isolate N. Amer 6 | 90%
Oc1ccc(/C=C/c2cc(O)cc(O)c2)cc1 | 5 µM | clinical isolate |  | p24 | PBMC | EJC-X2 | 15%
C/C(=C(/CCO)SSCC1CCCO1)N(C=O)Cc1cnc(C)nc1N | 50 µM |  |  | p24 | H9/HIV-1(MN) + H9 | MN | 96%
CC(C)[C@H](NC(=O)c1ccc2ccccc2n1)C(=O)N[C@@H](Cc1ccccc1)[C@H](O)CN1CC[C@@H](OCc2ccncc2)C[C@H]1C(=O)NC(C)(C)C | 0.031 µM |  |  | p24 | PBMC | UHC-1 | 90%
O=C(O)CCCCCCCCCCOc1ccc(I)cc1 | 6.3 µM |  |  | cytopathic effect / XTT | CEM + CEM-SS | IIIB | 6.5%
CO[C@@H]1C=C2C3CC[C@H]([C@H](C)/C=C/C(C)C(C)C)[C@@]3(C)CCC2[C@@]2(C)CC[C@H](O)C[C@]12O | 31.3 µM |  |  | cytopathic effect / microscopy | MT-4 |  | 0%
Cc1cn([C@H]2C[C@H](N=[N+]=[N-])[C@@H](COP(=O)(O)OC[C@H]3OC(O)[C@@H](O)[C@@H](O)[C@@H]3O)O2)c(=O)[nH]c1=O | 25 µM | 7 d |  | RT activity | PBL | LAV-Bru | 94%
COC(=O)C(O)[C@H]1C(C)(C)[C@H](OC(C)=O)[C@]2(O)[C@@H](OC(=O)C(C)C)[C@@]34O[C@]2(O)[C@]1(C)[C@H]3CC[C@]1(C)C4=CC(=O)O[C@H]1c1ccoc1 | 100 µM | pseudotyped |  | luciferase / luminescence | SupT1 | NL4-3 | 59.33%
Nc1ccn([C@@H]2CS[C@H](CO)O2)c(=O)n1 | 5 µM |  |  | RT activity | PBL (activated) + PBL | BZ X4 | 100%
CN1CCCC(CC2c3ccccc3Sc3ccccc32)C1 | 100 µg/mL |  |  |  | MT-4 | LAV | 0%
CC(C)=CCN1Cc2cc(Cl)cc3[nH]c(=S)n(c23)C[C@@H]1C | 0.038 µM |  | RT-P236L | antigen | MT-4 | MFE30(RT-P236L) | 90%
Cc1cn([C@H]2C[C@H](N=[N+]=[N-])[C@@H](CO)O2)c(=O)[nH]c1=O | 2 µM |  |  | cytopathic effect / trypan blue | MT-2 | IIIB | 100%
CC(=O)S[C@@H]1CC2=CC(=O)CC[C@]2(C)[C@H]2CC[C@H]3[C@@H](CC[C@@]34CCC(=O)O4)[C@H]12 | 100 µg/mL |  |  |  | MT-4 | LAV | 0%
COC(=O)[C@@H](C)NC(=O)c1c(C)cc2c(c1O)-c1c(cc3c(c1O)C(=O)c1cc(OC)cc(O)c1C3=O)[C@H](O)[C@H]2O[C@@H]1O[C@H](CO)[C@H](N)[C@H](O)[C@H]1O | 30 µg/mL |  |  | antigen | MT-4 | IIIB | 76%
NCCCCCCCCCCC(=O)O | 0.6 µM |  |  | cytopathic effect / XTT | CEM + CEM-SS | IIIB | 18.9%
Cc1cn([C@H]2C[C@H](N=[N+]=[N-])[C@@H](COP(=O)(O)OC[C@H]3OC(O)[C@H](O)[C@@H](O)[C@@H]3O)O2)c(=O)[nH]c1=O | 1 µM | 14 d |  | RT activity | U-937 | LAV-Bru | 9%
Cc1cn([C@H]2C[C@H](N=[N+]=[N-])[C@@H](CO)O2)c(=O)[nH]c1=O | 0.0517 µM |  |  | p24 / RT activity | PBMC | BaL | 90%
CN1CCN(CCCN2c3ccccc3Sc3ccc(Cl)cc32)CC1 | 10 µg/mL |  |  |  | MT-4 | LAV | 99.6%
OC[C@H]1O[C@@H](n2cnc3c2NC=NC[C@H]3O)C[C@@H]1O | 0.02 µM |  |  | cytopathic effect | ATH8 |  | 0%
Cc1cn([C@H]2CC[C@@H](CO)O2)c(=O)[nH]c1=O | 1 µM |  |  | ELISA | MT-4 | IIIB | 81%
COC(=O)C(O)[C@H]1[C@]2(C)C[C@@]3(OC(=O)C(C)C)[C@]1(C)[C@H]1CC[C@]4(C)C(=CC(=O)O[C@H]4c4ccoc4)[C@@]1(O)[C@@]3(O)C(=O)[C@H]2OC(C)=O | 20 µM | pseudotyped |  | luciferase / luminescence | SupT1 | NL4-3 | 0%
CCCCCCCCCCCCCC(=O)OC[C@H](COP(=O)(O)OC[C@@H]1CC[C@H](n2cnc3c(=O)[nH]c(N)nc32)O1)OC(=O)CCCCCCCCCCCCC | 10 µM |  |  | ELISA | MT-4 | IIIB | 97%
Cc1ccc(S(=O)(=O)N[C@@H](CCCCN)C(=O)CCl)cc1 | 10 µg/mL |  |  | XTT / p24 | MT-4 |  | 100%
CCCCCCCCCCCCCC(=O)OC[C@@H](COP(=O)(O)OC[C@@H]1CC[C@H](n2cc(C)c(=O)[nH]c2=O)O1)OC(=O)CCCCCCCCCCCCC | 10 µM |  |  | ELISA | MT-4 | IIIB | 97%
Nc1nc(=S)c2ncn([C@H]3CC[C@@H](CO)O3)c2[nH]1 | 2 µM |  |  | cytopathic effect / trypan blue | ATH8 | IIIB | 6%

For reference, 8 entries again:

compound | dose | setting | mutations | method | cell line | strain | value
O=c1[nH]cnc2c1ncn2[C@H]1CC[C@@H](CO)O1 | 10 µM |  | RT-A62V V75I F77L Q151M | p24 | PBMC | ddI-resistant (RT K65R/L74V/M184V) | 0%
Nc1nc(N)c2ncn([C@H]3CC[C@@H](CO)O3)c2n1 | 20 µM |  |  | cytopathic effect / trypan blue | MT-2 | IIIB | 3%
CCCCCCCCCCOCCC(=O)O | 20 µM |  |  | cytopathic effect / XTT | CEM + CEM-SS | IIIB | 4.8%
COC(=O)C(O)[C@H]1[C@]2(C)C[C@]3(O)[C@@](O)(C(=O)C4=C(CC[C@]5(C)C4=CC(=O)O[C@H]5c4ccoc4)[C@]13C)[C@H]2OC(=O)C(C)C | 100 µM | pseudotyped |  | luciferase / luminescence | SupT1 | NL4-3 | 99.44%
COC(=O)C(O)[C@H]1[C@]2(C)C[C@@]3(OC(=O)C(C)C)[C@]1(C)[C@H]1CC[C@]4(C)C(=CC(=O)O[C@H]4c4ccoc4)[C@@]1(O)[C@@]3(O)C(=O)[C@H]2OC(C)=O | 20 µM | pseudotyped |  | luciferase / luminescence | SupT1 | NL4-3 | 0%
CN1CCCC(CC2c3ccccc3Sc3ccccc32)C1 | 100 µg/mL |  |  |  | MT-4 | LAV | 0%
COc1cc(O)c2c(c1)C(=O)c1c(cc3c(c1O)-c1c(cc(C)c(C(=O)N[C@H](C)C(=O)O)c1O)[C@H](O[C@@H]1O[C@H](C)[C@H](NC(C)=O)[C@H](O[C@@H]4OC[C@@H](O)[C@H](O)[C@H]4O)[C@H]1O)[C@H]3O)C2=O | 30 µg/mL |  |  | antigen | MT-4 | IIIB | <10%
CC(=O)S[C@@H]1CC2=CC(=O)CC[C@]2(C)[C@H]2CC[C@H]3[C@@H](CC[C@@]34CCC(=O)O4)[C@H]12 | 100 µg/mL |  |  |  | MT-4 | LAV | 0%

Percent inhibition refers to the dose given; in toxicity tests it is the harm to the cells. An empty or dashed field is not shown.